Measured values: US20060035242A1

molecular target: T1, mouse pathogenic prion protein PrP^Sc (RML, in infected Balb-c mouse brain homogenate) (mouse), P04925

In order of falling ELISA A405 nm:
1. GGGQWAKPSKPKTN [peptide reagent of SEQ ID NO:100]  0.376 A405 nm
2. GGGQWNKPAKPKTN [peptide reagent of SEQ ID NO:101]  0.356 A405 nm
3. GGGQWNKPSKAKTN [peptide reagent of SEQ ID NO:91]  0.26 A405 nm
4. GGGQWNKPSAPKTN [peptide reagent of SEQ ID NO:93]  0.256 A405 nm
5. GGGQWNKASKPKTN [peptide reagent of SEQ ID NO:99]  0.25 A405 nm
6. GGGQWNKPSKPKAN [peptide reagent of SEQ ID NO:102]  0.234 A405 nm
7. GGGQWNKPSKPATN [peptide reagent of SEQ ID NO:94]  0.23 A405 nm

molecular target: T1, mouse pathogenic prion protein PrP^Sc …; remark: another data set of the same source

In order of rising ELISA A405 nm:
1. DDDAGAAAAGAVVGGLGGYMLGSAMDDD [peptide reagent of SEQ ID NO:86]  0.227 A405 nm
2. GGGQWNAPSKPKTN [peptide reagent of SEQ ID NO:92]  0.23 A405 nm
3. DDDAGAAAAGAVVGGLGGYMLGSAM [peptide reagent of SEQ ID NO:83]  0.237 A405 nm
4. GGGWNKPSKPKT [peptide reagent of SEQ ID NO:75]  0.247 A405 nm
5. GGGQWNKPSAPKTN [peptide reagent of SEQ ID NO:93]  0.25 A405 nm
6. GGTHNQWNKPSKPKTN [peptide reagent of SEQ ID NO:54]  0.253 A405 nm
7. GGWGQGGGTHNQWNKPSKPKTN [peptide reagent of SEQ ID NO:53]  0.254 A405 nm
8. GGGQWNKPSKAKTN [peptide reagent of SEQ ID NO:91]  0.256 A405 nm
9. GGGAGAAAAGAVVGGLGGYMLGSAM [peptide reagent of SEQ ID NO:78]  0.259 A405 nm
10. GGGQWNKPSKPATN [peptide reagent of SEQ ID NO:94]  0.26 A405 nm
11. KKKAGAAAAGAVVGGLGGYMLGSAMKKK [peptide reagent of SEQ ID NO:84]  0.268 A405 nm
12. GGGKKRPKPGGWNTGGSRYPGQGS [peptide reagent of SEQ ID NO:66]  0.533 A405 nm
13. QWNKPSKPKTNLKHVGGG [peptide reagent of SEQ ID NO:77]  0.839 A405 nm
14. KKKAGAAAAGAVVGGLGGYMLGSAM [peptide reagent of SEQ ID NO:57]  0.901 A405 nm
15. QWNKPSKPKTNGGGQWNKPSKPKTN [peptide reagent of SEQ ID NO:51 (tandem repeat)]  0.923 A405 nm
16. QWNKPSKPKTNGGG [peptide reagent of SEQ ID NO:50]  0.932 A405 nm
17. GGGKKRPKPGGGQWNKPSKPKTN [peptide reagent of SEQ ID NO:81]  1.25 A405 nm
